# Test results from publication PMC3359301.
# Chains of the proteins cited; added tags and fusions are not shown. Lines headed by an entry give the natural chain unless they say otherwise; changes in a name come on top.
# UniProt Q4WJ81: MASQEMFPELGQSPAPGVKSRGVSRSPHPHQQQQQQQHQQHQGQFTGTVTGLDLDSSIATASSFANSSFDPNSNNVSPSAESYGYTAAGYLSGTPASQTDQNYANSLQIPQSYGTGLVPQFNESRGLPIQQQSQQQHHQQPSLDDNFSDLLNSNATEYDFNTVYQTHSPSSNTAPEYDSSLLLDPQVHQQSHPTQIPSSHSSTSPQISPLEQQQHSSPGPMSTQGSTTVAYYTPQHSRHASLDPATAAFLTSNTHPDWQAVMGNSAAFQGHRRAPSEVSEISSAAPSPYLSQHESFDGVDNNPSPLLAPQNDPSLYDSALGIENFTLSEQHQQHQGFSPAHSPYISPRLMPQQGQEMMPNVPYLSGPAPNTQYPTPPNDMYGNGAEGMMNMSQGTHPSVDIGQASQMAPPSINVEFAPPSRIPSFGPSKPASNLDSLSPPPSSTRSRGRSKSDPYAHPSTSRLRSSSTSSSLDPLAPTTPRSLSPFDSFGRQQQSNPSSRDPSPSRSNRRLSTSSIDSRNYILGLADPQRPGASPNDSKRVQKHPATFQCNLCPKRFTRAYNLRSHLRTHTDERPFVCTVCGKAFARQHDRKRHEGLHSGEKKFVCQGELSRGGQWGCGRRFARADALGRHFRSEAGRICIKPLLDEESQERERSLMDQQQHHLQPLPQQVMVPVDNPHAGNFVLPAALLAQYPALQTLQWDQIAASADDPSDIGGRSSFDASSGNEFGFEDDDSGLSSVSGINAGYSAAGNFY
# Target: GST::CrzA (UniProt Q4WJ81)
# Assay: competition with a labelled probe
# Conditions: recombinant protein, protein details: N-terminal GST (pDEST15)
Sequence,"binding result (pmcA probe, complex inhibited only at 30-fold excess)","binding result (pmcC probe, complete inhibition at about 15-fold excess)"
TGTTGCCCTGCCCCTTGTC (double strand) [pmcA1/pmcA2 CDRE oligonucleotide],binds,–
TCCGACACAGCCACGCTCT (double strand) [pmcC1/pmcC2 CDRE oligonucleotide],–,binds

# For at least one entry, the source does not settle the construct or the ends of the probe.
